Results of unrelated studies side by side (data: NIAID ChemDB).

Common to all: tests in culture; organism: Mycobacterium tuberculosis

ECn is the concentration giving n% inhibition of infection, replication or growth. An empty or dashed field is not shown. Rows are shuffled and stem from different studies. A number after MIC or MFC names an inhibition level or a share of isolates. Percent inhibition refers to the dose given; in toxicity tests it is the harm to the cells. MIC bound comes from a single tested concentration. Two numbers with a dash give a range or band.

structure	mutations	read by	tested at	cells	strain	measure	setting	result
O=C1C(c2ccc(Cl)cc2)=[N+]([O-])c2ccccc21		MTT			H37Rv	EC50		7.9 µM
CO[C@H]1/C=C/O[C@@]2(C)Oc3c(C)c(O)c4c(O)c(c(/C=N/N5CCN(C)CC5)c(O)c4c3C2=O)NC(=O)/C(C)=C\C=C\[C@H](C)[C@H](O)[C@@H](C)[C@@H](O)[C@@H](C)[C@H](OC(C)=O)[C@@H]1C					H37RA 16	MIC		1 µg/mL
C/C(=N\NC(N)=S)c1ccccn1		resazurin			H37Rv (ATCC 27294)	MIC		31.3 µg/mL
COC(=O)c1ccnc2ccccc12					H37Rv	MIC		>6.25 µg/mL
COCCCn1c(-c2ccc(Cl)cc2)nn2c(=O)c3ccccc3nc2c1=O		BACTEC	12.5 µg/mL		H37Rv	inhibition		11%
O=C1OCc2cc(N3CCN(C(=O)c4cccc(Cl)c4)CC3)ccc21		turbidity			BioA overexpression strain	MIC90		>50 µM
Cc1c(OCC(F)(F)F)ccnc1CSc1nc2ccccc2[nH]1		resazurin				MIC90	clinical isolate	0.78 µM
O=C(O)c1cn(N2CCOCC2)c2cc(NC3CC3)c([N+](=O)[O-])cc2c1=O					ATCC 27294 (WT)	MIC50		14.6 µM
CO[C@H]1/C=C/O[C@@]2(C)Oc3c(C)c(=O)c4c(O)c(c5oc6cc(N7CCCC(C)C7)ccc6nc5c4c3C2=O)NC(=O)/C(C)=C\C=C\[C@H](C)[C@H](O)[C@@H](C)[C@@H](O)[C@@H](C)[C@H](OC(C)=O)[C@@H]1C					H37Rv	MIC		0.07 µg/mL
CCOC(=O)Cc1cc(C2CCCC2)nc2c(C3CCCC3)cccc12			6.25 µg/mL		H37Rv	inhibition		99%
C/C(=N\NC(N)[S-])c1ccccn1.CC(=O)/C=C(/C)[O-].[O]=[V+2]		resazurin			H37Rv (ATCC 27294)	MIC		62.5 µg/mL
CO[C@H]1/C=C/O[C@@]2(C)Oc3c(C)c(=O)c4c(O)c(c5oc6cc(N7CCCCCC7)ccc6nc5c4c3C2=O)NC(=O)/C(C)=C\C=C\[C@H](C)[C@H](O)[C@@H](C)[C@@H](O)[C@@H](C)[C@H](OC(C)=O)[C@@H]1C					H37Rv	MIC		0.07 µg/mL
O=c1[nH]c(=S)c(CO)cn1C1OC(CO)C(O)C1O		resazurin			H37Ra	MIC70		5 µg/mL
CC1CCCCN1.CC1CCCCN1C(=S)S				VERO	H37Rv	MIC		1.6 µg/mL
CCCCCCCCO[C@H]1O[C@H](CO)[C@@H](O[C@H]2O[C@H](CO)[C@@H](OC)[C@@H]2O)[C@@H]1O					H37Rv	EC50		>6.25 µg/mL
Cc1cc(S(=O)(=O)Nc2n[nH]c(-c3ccc(Cl)cn3)n2)c(S)cc1Cl		BACTEC			H37Rv	MIC bound		>12.5 µg/mL
CCc1cn(C2OC(COC(C)=O)C(OC(C)=O)C2F)c(=O)[nH]c1=O		resazurin			H37Ra	MIC68		100 µg/mL
COc1ccc(C2=[N+]([O-])c3ccccc3C2=O)cc1		MTT			H37Rv	MIC		50 µM
Cc1cc(NS(=O)(=O)c2ccc(NO)cc2)no1		BACTEC	12.5 µg/mL		H37Rv	inhibition		18%
COc1ccc2c(c1)c(CC(=O)NN)c(C)n2C(=O)c1ccc(Cl)cc1			0.125 µg/mL			inhibition		60%
CC(=O)c1ccc(N2CCN(C(=O)c3ccc(Cl)c(Cl)c3)CC2)cc1		turbidity			BioA underexpression strain	MIC90		6 µM
CCCCCCCCO[C@H]1O[C@H](CO)[C@@H](O[C@H]2O[C@H](CO)[C@@H](N=[N+]=[N-])[C@@H]2O)[C@@H]1O					H37Rv	EC50		>6.25 µg/mL
CCc1c(CNc2cc(C)ccc2OC)cnc2nc(N)nc(N)c12					H37Rv	MIC		>12.5 µg/mL
NNC(=O)C(=O)NN						EC50		<0.25 µg/mL
CC(=O)c1ccc(N2CCN(C(=O)c3cc(Cl)cc(Cl)c3)CC2)cc1		turbidity			BioA overexpression strain	MIC50		>50 µM
CNC(=O)OCC1(OC(=O)NC)OC(COC(=O)NC)(OC(=O)NC)C(OC(=O)NC)C1OC(=O)NC		BACTEC	12.5 µg/mL		H37Rv	inhibition		3%
CCCc1ccc2oc(-c3ccc(O)c(OC)c3)c(C)c2c1	isoniazid and streptomycin resistant	resazurin / absorbance			Clinical isolate 91	MIC		7.8 µg/mL
CC1OC(=O)c2cc(Br)ccc21					H2	MIC		300 µg/mL
Cc1ccc2c3c([nH]c2c1)-c1[nH]c(=O)ncc1CCC3		resazurin	50 µg/mL		H37Rv	inhibition		0%
CC1OC(=O)c2cccc(O)c21					H37Rv	MIC		1000 µg/mL
O/N=C(\Cc1nc2cc(Cl)c(Cl)cc2nc1C/C(=N\O)c1cccc2ccccc12)c1cccc2ccccc12		BACTEC	6.25 µg/mL		H37Rv	inhibition		6%
CCCCCCCCO[C@H]1O[C@H](CO[C@H]2O[C@H](CO)[C@@H](N)[C@@H]2O)[C@@H](O)[C@@H]1O					H37Rv	EC50		>6.25 µg/mL
CCCc1cc(-c2nc(-c3ccc(OCCN4CCCC4)cc3)cs2)ccn1		turbidity			H37Rv	MIC80		8 µg/mL
O=C1C(c2ccc([N+](=O)[O-])cc2)=[N+]([O-])c2ccccc21		MTT			H37Rv	EC50		12.4 µM
Cc1cc(C)nc(NS(=O)(=O)c2ccc(N3C(=O)c4ccccc4C3=O)cc2)n1		resazurin			H37Rv	MIC90		125 µg/mL
COc1ccc(C(OC[C@@H](O)CNCCNC[C@H](O)COC(c2ccc(OC)c(OC)c2)c2ccc(OC)c(OC)c2)c2ccc(OC)c(OC)c2)cc1OC					H37Rv	MIC		12.5 µg/mL
COc1ccc2c(c1)C[C@]1(C)[C@@H](C)CCC3C(C)(C)CCC[C@]31O2					H37Rv	EC50		<6.25 µg/mL
CCOC(=O)C1=C(C)O/C(=C\c2ccccc2)C1=O		BACTEC			H37Rv	MIC bound		>12.5 µg/mL
C[C@@H]1Oc2nc([N+](=O)[O-])cn2C[C@@H]1OCc1ccc(OC(F)(F)F)cc1		absorbance			H37Rv-T3	MIC		>100 µM
CCOC(=O)c1cc(Cl)cc2c(=O)c3c([nH]c12)C(=O)c1c([nH]c2c(C(=O)OCC)cc(Cl)cc2c1=O)C3=O		BACTEC			H37Rv	MIC bound		>12.5 µg/mL
NNC(=O)c1ccncc1		resazurin			H37Rv (ATCC 27294)	MIC		0.015 µg/mL
COC(=O)c1ccc2c(C3CCCC3)cccc2n1					H37Rv	MIC		2 µg/mL
CC(C)Nc1cc2c(cc1[N+](=O)[O-])c(=O)c(C(=O)O)cn2C(C)C					ATCC 27294 (WT)	MIC90		22.6 µM
NC(=N\N=C\C(O)C(O)C(O)C(O)C(=O)O)/C(N)=N/N=C/C(O)C(O)C(O)C(O)C(=O)O		BACTEC			H37Rv	MIC bound		>12.5 µg/mL
CC(=O)c1ccc(N2CCN(C(=O)CC(C)C)CC2)cc1		turbidity			BioA underexpression strain	MIC50		>50 µM
CC1OC(=O)c2cc(N)ccc21					H2	MIC		10 µg/mL
COc1ccc(/C=C/C(=O)c2sc(NC(=S)NC(=O)c3ccccc3F)nc2C)cc1OC		resazurin			H37Rv	MIC bound		>6.25 µg/mL
O=C1C(c2ccc(Oc3ccccc3)cc2)=[N+]([O-])c2ccccc21		MTT			H37Rv	EC50		2.7 µM
COC(=O)c1cc(C2CCCC2)c2ccccc2n1					H37Rv	MIC		>6.25 µg/mL
CCNc1cc2c(cc1[N+](=O)[O-])c(=O)c(C(=O)O)cn2CC					ATCC 27294 (WT)	MIC50		>200 µM
CCCCCCCCO[C@H]1O[C@H](CO)[C@@H](O[C@H]2O[C@H](CO)[C@@H](N)[C@@H]2O)[C@@H]1O					H37Rv	EC50		>6.25 µg/mL
CCOc1ccc(OCC)c(N(C)Cc2cnc3nc(N)nc(N)c3c2C)c1					H37Rv	MIC		>12.5 µg/mL
COC(=O)c1c(C2CCCCC2)nc2ccccc2c1C1CCCCC1			6.25 µg/mL		H37Rv	inhibition		95%
O=C(O)c1cn(CCF)c2cc(NCCF)c([N+](=O)[O-])cc2c1=O					ATCC 27294 (WT)	MIC90		>200 µM
COc1ccn2nc(C)c(C(=O)NCc3ccc(-c4ccc(OC(F)(F)F)cc4)cc3F)c2c1		fluorescence			H37Rv	MIC		<0.02 µg/mL
COCC1(c2ccccc2)C(=O)N(C)C(=O)N1C		BACTEC			H37Rv	MIC bound		>12.5 µg/mL
O=C(O)c1cn(C2CCC2)c2cc(NC3CCC3)c(F)cc2c1=O					ATCC 27294 (WT)	MIC50		>200 µM
CCOCCN(CCOCC)c1ccc2nc3c(oc2c1)c1c(O)c2c(=O)c(C)c4c(c23)C(=O)[C@@](C)(O/C=C/[C@H](OC)[C@@H](C)[C@@H](OC(C)=O)[C@H](C)[C@H](O)[C@H](C)[C@@H](O)[C@@H](C)/C=C/C=C(/C)C(=O)N1)O4					H37Rv	MIC		0.15 µg/mL
Cc1ccc2c3c(nsc13)-c1ccccc1C2=O		resazurin			H37Rv	MIC		>12.5 µg/mL
COc1ccc(C(F)(F)F)cc1NCc1cnc2nc(N)nc(N)c2c1C					H37Rv	MIC		1.56 µg/mL
NC(=O)c1c2c(n3ccccc13)C(=O)c1ccccc1C2=O		resazurin	6.25 µg/mL		H37Rv	inhibition		26%
CC[C@H]1OC(=O)[C@H](C)[C@@H](O[C@H]2C[C@@](C)(OC)[C@@H](O)[C@H](C)O2)[C@H](C)[C@@H](O[C@@H]2O[C@H](C)C[C@H](N(C)C)[C@H]2O)[C@](C)(OC)C[C@@H](C)C(=O)[C@H](C)[C@@H](O)[C@]1(C)O					H37Rv	MIC		4–16 µg/mL
O=c1ncc2c([nH]1)-c1[nH]c3ccccc3c1CCC2		resazurin	50 µg/mL		H37Rv	inhibition		0%
O=C1C=[N+]([O-])c2ccccc21		MTT			H37Rv	EC50		5.7 µM
NNC(=O)c1ccncc1	isoniazid and streptomycin resistant	resazurin / absorbance			Clinical isolate 91	MIC		2 µg/mL
CC1OC(=O)c2ccccc21					H2	MIC		1000 µg/mL
CC(C)(C)n1cc(C(=O)O)c(=O)c2cc([N+](=O)[O-])c(N3CCSCC3)cc21					ATCC 27294 (WT)	MIC90		100 µM
O=C(Nc1ccc(Cl)cc1C(F)(F)F)C(=O)Nn1c(=S)[nH]c2ccccc2c1=O		resazurin			H37Rv	MIC bound		>6.25 µg/mL
CC1OC(=O)c2ccc(O)cc21					H2	MIC		300 µg/mL
COc1ccc(NS(=O)(=O)c2ccc(NCc3c4ccccc4nc4ccccc34)cc2)nn1		BACTEC			H37Rv	MIC		≥12.5 µg/mL
C/C=C/c1ccc2oc(-c3ccc(O)c(OC)c3)c(C)c2c1		resazurin / absorbance			Clinical isolate 11	MIC		7.8 µg/mL
O=c1ccc2nc3cc(Cl)ccc3sc-2c1		resazurin			H37Rv	MIC		3.13 µg/mL
CC(C)(C)n1cc(C(=O)O)c(=O)c2cc([N+](=O)[O-])c(N3CCOCC3)cc21					ATCC 27294 (WT)	MIC50		0.2 µM
O=C(O)c1nccnc1C(=O)O		BACTEC	12.5 µg/mL		H37Rv	inhibition		4%
Cc1c(CN(C)c2cccc3c2CCCC3)cnc2nc(N)nc(N)c12					H37Rv	MIC		>12.5 µg/mL
CC1COC2(CCN(c3nc(=O)c4cc(C(F)(F)F)cc([N+](=O)[O-])c4s3)CC2)O1					H37Rv	MIC		0.001 µg/mL
Cc1c(C(=O)CC(=O)C(=O)Nc2c(C(C)C)cccc2C(C)C)[n+](=O)c2ccccc2n1[O-]		resazurin			H37Rv	MIC bound		>6.25 µg/mL
CCc1cn(C2OC(CO)C(Br)C2F)c(=O)[nH]c1=O		resazurin			H37Ra	MIC65		50 µg/mL
CC1(O)C2CCCCC2C2CCCCC2C1(C)O		resazurin	6.25 µg/mL		H37Rv	inhibition		-21%
c1ccc(-n2ncc3c2-c2[nH]c4ccccc4c2CCC3)cc1		resazurin	50 µg/mL		H37Rv	inhibition		0%
CN1CCN(C(=O)/N=N/C(=O)N2CCN(C)CC2)CC1		BACTEC	12.5 µg/mL		H37Rv	inhibition		0%
O=C1C(c2ccc(Cl)cc2)=[N+]([O-])c2cc3c(cc21)OCO3		MTT			H37Rv	MIC		50 µM
COc1ccn2nc(C)c(C(=O)NCc3ccc(-c4ccc(OC(F)(F)F)cc4)nc3)c2c1		fluorescence			H37Rv	MIC		0.053 µg/mL

For reference, 5 entries again:

structure,mutations,read by,tested at,cells,strain,measure,setting,result
Cc1c(OCC(F)(F)F)ccnc1CSc1nc2ccccc2[nH]1,,resazurin,,,,MIC90,clinical isolate,0.78 µM
O=C1C=[N+]([O-])c2ccccc21,,MTT,,,H37Rv,EC50,,5.7 µM
NC(=N\N=C\C(O)C(O)C(O)C(O)C(=O)O)/C(N)=N/N=C/C(O)C(O)C(O)C(O)C(=O)O,,BACTEC,,,H37Rv,MIC bound,,>12.5 µg/mL
O/N=C(\Cc1nc2cc(Cl)c(Cl)cc2nc1C/C(=N\O)c1cccc2ccccc12)c1cccc2ccccc12,,BACTEC,6.25 µg/mL,,H37Rv,inhibition,,6%
O=C(Nc1ccc(Cl)cc1C(F)(F)F)C(=O)Nn1c(=S)[nH]c2ccccc2c1=O,,resazurin,,,H37Rv,MIC bound,,>6.25 µg/mL